Assay results taken from PMC8584173, “The Cytotoxic Effect of Copper (II) Complexes with Halogenated 1,3-Disubstituted Arylthioureas on Cancer and Bacterial Cells” (International Journal of Molecular Sciences, 2021).

Legend:
Type in all cases: cell-based
[1] = test system: PC3 (human metastatic prostate cancer); experiment: MTT cytotoxicity assay, PC3; details: IC50 for normal cell line (HaCaT)/IC50 PC3
Procedure: (§1) The human primary (SW480), metastatic (SW620) colon cancer, metastatic prostate cancer (PC3) and human immortal keratinocyte (HaCaT) cell lines were purchased from the American Type Culture Collection (ATCC, Rockville, USA). The cells were cultured in medium according to protocols (MEM for SW480 and SW620, RPMI 1640 for PC3 and DMEM for HaCaT cells) supplemented with 10% fetal bovine serum (FBS), penicillin (100 U/mL) and streptomycin (100 μg/mL) and cultured in 37 °C/ 5% CO2 humidified incubator. The cells were cultured until appropriate confluence was achieved (80–90%). Next, they were harvested by treatment with 0.25% trypsin (Gibco Life Technologies, USA) and used for studies.
(§2) Cells without studied compounds in medium were used as a control.
(§3) The cell viability was assessed by determination of MTT salt (3-(4,5-dimethylthiazol-2-yl)-2,5-diphenyltetrazolium bromide) conversion by mitochondrial dehydrogenase. MTT assay was performed as previously described. Experiments were repeated three times. Cell viability was presented as a percentage of MTT reduction in the treated cells versus the control cells. Number of viable cells cultured without studied compounds was assumed to be 100%. […] Thiourea complexes with the highest cytotoxic potential assessed by MTT determination (with the lowest IC50) were chosen for subsequent assessments of cytotoxicity mechanisms.

[2] = test system: SW620 (human metastatic colon cancer); experiment: MTT cytotoxicity assay, SW620; details: IC50 for normal cell line (HaCaT)/IC50 SW620
Procedure: as §1, §2
The cell viability was assessed by determination of MTT salt (3-(4,5-dimethylthiazol-2-yl)-2,5-diphenyltetrazolium bromide) conversion by mitochondrial dehydrogenase. MTT assay was performed as previously described. Experiments were repeated three times. Cell viability was presented as a percentage of MTT reduction in the treated cells versus the control cells. Number of viable cells cultured without studied compounds was assumed to be 100%. Decreased relative MTT level means decreased cell viability.

[3] = test system: SW480 (human primary colon cancer); experiment: MTT cytotoxicity assay, SW480; details: IC50 for normal cell line (HaCaT)/IC50 SW480
Procedure: as §1, §2, §3

## [Cl][Cu][Cl] [CuCl2, copper (II) chloride, reference compound]
[1]
  SI (selectivity index): 1.1
[2]
  SI (selectivity index): 1.2
[3]
  SI (selectivity index): 1.0
